According to publication PMC3536697:
Construct, isoform or probe ends are uncertain for at least one entry. For some of these results: A negative result means that nothing was seen under these conditions. For some of these results: At least one verdict rests on a figure or table, not on a statement of the authors. For some of these results: A weaker result is weaker than the reference pair of the same experiment.

Experiments:
[1] = system: Cdc13 (CST subunit) + Stn1 + Ten1; assay: smFRET; conditions: 16 nM CST, about half dissociated 30 min after wash; 3' biotin on strand 2; smFRET: 20 mM Tris-HCl pH 7.5, 3 mM MgCl2, 100 mM NaCl, 1 mM DTT, 0.1 mg/ml BSA, 22 C; recombinant protein; protein details: SUMO (N-term), FLAG (C-term),HIS6-SUMO,GST; label: Cy3 near G-tail end, Cy5 5' of strand 2
Stn1 + Ten1 = assay: EMSA; conditions: various buffers; EMSA: 10 mM Tris-HCl pH 8.0, 2 mM MgCl2, 1 mM spermidine, 1 mM DTT, 10% glycerol, 22 C; recombinant protein; protein details: HIS6-SUMO,GST; label: 32P; single-stranded DNA
[2] = system: Cdc13 (CST subunit) + Stn1 + Ten1; assay: EMSA; conditions: EMSA: 10 mM Tris-HCl pH 8.0, 2 mM MgCl2, 1 mM spermidine, 1 mM DTT, 10% glycerol, 22 C, recombinant protein, protein details: SUMO (N-term), FLAG (C-term),HIS6-SUMO,GST, single-stranded DNA
Cdc13 (Candida glabrata) = assay: EMSA; conditions: EMSA: 10 mM Tris-HCl pH 8.0, 2 mM MgCl2, 1 mM spermidine, 1 mM DTT, 10% glycerol, 22 C, recombinant protein, protein details: HIS6-SUMO (N-term), FLAG (C-term), single-stranded DNA
Ten1 (Candida glabrata) = assay: EMSA; conditions: various buffers; EMSA: 10 mM Tris-HCl pH 8.0, 2 mM MgCl2, 1 mM spermidine, 1 mM DTT, 10% glycerol, 22 C; recombinant protein; protein details: GST; label: 32P; single-stranded DNA
[3] = 40 nM, smear, unstable, label: unlabeled competitor or labeled probe

TGGCGACGGCAGCGAGGCTGTGGGGTCTGGGTGC / GCCTCGCTGCCGTCGCCA [16-nt G-tail FRET construct]
binding result [1]: binds

TGTGGGGTCTGGGTGC [CgTELX1]
binding result (Stn1 + Ten1): no binding | binding result ([2]; t1/2 about 10 min (5-13), label: 32P): binds | binding result (Cdc13 (Candida glabrata); label: 32P): binds | binding result (Ten1 (Candida glabrata)): no binding

TGTGGGGTCTGGGTGCTGTGGGGTCTGGGTGCTGTGGGGTCTGGGTGC [CgTELX3]
binding result ([2]; two complexes, 15-60 nM, label: 32P): binds | binding result (Cdc13 (Candida glabrata); three complexes, 15-60 nM, label: 32P): binds

TTAGGATCCATGAAAACTGAAGAAGGTAAACTGGTA [R1]
binding result [2, 3]: binds more weakly | binding result (Cdc13 (Candida glabrata); [3]): binds more weakly

TTTTTTTTTTTTTTTTTTTTTTTTTTTTTTTTTTTTTTTTTTTTTTTTTTTTTTTTTT [(dT)58]
binding result (Cdc13 (Candida glabrata); 40-80 nM, smear, unstable): binds more weakly
